Reference: patent publication US7517998B2, “Non nucleoside reverse transcriptase inhibitors” (priority 2004, dated 2009)
The match of structure and compound is tentative.

Biological target: K103NNY181C mutant reverse transcriptase (Human immunodeficiency virus type 1 group M subtype B, UniProt P04585, K690N/Y768C)
Experiment: Reverse transcriptase enzymatic assay (PicoGreen), K103N/Y181C mutant RT
Type: biochemical, HIV-1
Settings: read-out: IC50 mut, enzymatic assay of Example 24

SMILES | IC50 [nM]
COc1ccc(-c2ccc(NC(=O)CSc3nnnn3-c3ccc(C)cc3Cl)c(Cl)c2)cc1 | 78
Cc1ccc(-n2nnnc2SCC(=O)Nc2ccc(-c3ccc(S(N)(=O)=O)cc3)cc2[N+](=O)[O-])c(Cl)c1 | 69
O=C(O)Cc1ccc(-c2ccc(NC(=O)CSc3nnnn3-c3cc4ccccc4cc3Cl)c(Cl)c2)cc1 | 16
O=C(CSc1nnnn1-c1ccc(C(F)(F)F)cc1Cl)Nc1ccc(-c2ccc(OCCN3CCCCC3)cc2)cc1Cl | 359
O=C(O)Cc1ccc(-c2ccc(NC(=O)CSc3nnnn3-c3cc4c(cc3Cl)CCC4)c(Cl)c2)cc1 | 16
CC(C)c1cc(Cl)c(-n2nnnc2SCC(=O)Nc2ccc(-c3ccc(CC(=O)O)cc3)cc2Cl)c(C(F)(F)F)c1 | 49
Cc1ccc(-n2nnnc2SCC(=O)Nc2ccc(-c3ccc(O)cc3)cc2Cl)c(Cl)c1 | 29
